Laboratory results: publication PMC7319586
The exact form of at least one protein or probe is not confirmed.

System: AbiEi (Streptococcus agalactiae)
Assay: EMSA
Conditions: positive co-operativity; recombinant protein; protein details: His6-SUMO removed by SENP, untagged; label: 5' 6-FAM on strand 2

Question: Does “AAAAGAAAATGTTGCTTTTATACCACAAATATTGTAAAATTGTAGTGTAAAAGCAACAAGTGGGGGGCCGTAAGCTTTTGTCAGTGCGCA (double strand) [PabiEi -1 to -71 WT (IR1-IR2, TRB1061)]” bind?
Answer: Result: binds
